Values quoted from earlier work in US20210147498A1, “USE OF GRAM-NEGATIVE LYSIN-ANTIMICROBIAL PEPTIDE (AMP) POLYPEPTIDE CONSTRUCTS IN PULMONARY SURFACTANT AND BIOFILMS” (priority 2018, published 2021).

Conditions: D'Lima et al., 2012; cited from earlier work

O=C(O)c1cn(C2CC2)c2cc(N3CCNCC3)c(F)cc2c1=O [Ciprofloxacin]
increase of Ciprofloxacin MIC over a 21 day serial passage: up to 32 fold
